Results of unrelated studies side by side (data: NIAID ChemDB).

All rows: growth or infection tests; species: HIV-1; read-out: EC50

Conditions beyond the fields shown may differ between rows.

smiles | method | strain or isolate | mutations | conditions | cells | value
CCOP(=O)(COc1ccc(C[C@H](NC(=O)O[C@H]2CO[C@H]3OCC[C@H]32)[C@H](O)CN(CC(C)C)S(=O)(=O)c2ccc(OC)cc2)cc1)OCC | ATP | IIIB | LPV-P31 lopinavir-resistant mutant |  | MT-2 | 0.0048 µM
Cc1ccnc2c1NC(=O)c1cccnc1N2C1CC1 | cytopathic effect / XTT | Diphenyl sulfone-resistant (RT-Y181C) | RT-Y181C |  | CEM + CEM-SS | 5.9 µM
CCn1nc(Cc2ccc(F)cc2F)cc1C1CCN(C[C@H]2CN([C@@H](C(=O)O)C(C)C)C[C@@H]2c2cccc(F)c2)CC1 | β-galactosidase | BaL |  |  | HeLa | <0.1 µM
Cc1ccnc2c1NC(=O)c1cccnc1N2C1CC1 |  |  | RT-D67N K70R T215Y K219Q A98G |  | MT-4 | <0.4 µM
CC(C)CN(C[C@@H](O)[C@H](Cc1ccccc1)NC(=O)O[C@H]1CCOC1)S(=O)(=O)c1ccc(N)cc1 | p24 / ELISA | IIIB | K112M K113E V128I M200I H219P |  | MT-2 | 0.0473 µM
CNc1ccc(Cl)cc1S(=O)(=O)c1ccccc1[N+](=O)[O-] | XTT | IIIB |  |  | AA5 | 0.06 µM
CCC(=O)c1ccc(F)c([C@@H]2C[C@@H]2NC(=O)Nc2ccc(C#N)cn2)c1O | absorbance | 93TH051 |  |  | PBMC | 0.0014 µM
Cc1ccnc2c1NC(=O)c1cccnc1N2C1CC1 | XTT | NL4-3(RT-4XAZT) | RT-D67N K70R T215Y K219Q |  | CEM + CEM-SS | 0.02 µM
Cc1occc1C(=S)Nc1ccc(Cl)c(/C=N/OC(C)(C)C)c1 | cytopathic effect / XTT | Costatolide-resistant (RT Y188H) | RT-Y188H |  | CEM + CEM-SS | 1.6 µM
O=S(=O)(c1ccccc1)c1cccc2c1NCCC2 | XTT | IIIB |  |  | CEM + CEM-SS | 20 µM
S=C(NCCc1cccs1)Nc1ccc(Br)cn1 | plaque count | G190-6 Clinical isolate NRTI-resistant | RT-M41L D67N K70R T215Y K219Q |  | HT4 + HeLa | 0.01 µM
Cc1c(C#N)cc(C(F)F)cc1Oc1c(C(F)(F)C(F)F)ncn(Cc2cc(F)c[nH]c2=O)c1=O | GFP |  |  |  | MT4-GFP | 0.0397 µM
Cc1cn([C@H]2C[C@H](N=[N+]=[N-])[C@@H](CO)O2)c(=O)[nH]c1=O | luciferase | NRTI resistant | RT-M41L K70R T215F K219E |  | HeLa | 1.37 µM
CN[C@H]1CO[C@@H]2OCC[C@H](OC(=O)N[C@@H](Cc3cccc(OC)c3)[C@H](O)CN(CC(C)C)S(=O)(=O)c3ccc4nc(NC(C)C)sc4c3)[C@@H]21 | p24 / luminescence | NL4-3 | L10F L33I M36I M46I I54V K55R I62V L63P A71V G73S V82T |  | MT-4 | 0.0032 µM
CC[C@H](C)[C@H](NC(=O)c1ccccc1SSc1ccccc1C(=O)N[C@H](C(=O)O)[C@@H](C)CC)C(=O)O | p24 / RT activity | ROJO |  |  | PBMC | 13.5 µM
Nc1nc(=O)n([C@@H]2CS[C@H](CO)O2)cc1F | recombinant virus assay | Clinical isolate | M41L/A98G/K103N/M184V/L210W/T215Y |  | MT-2 | >13.3 µM
Cc1ccnc2c1NC(=O)c1cccnc1N2C1CC1 | plaque count | HXB2 |  |  | HT4 + HT4 LacZ-1 | 0.09 µM
CCn1nc(Cc2ccc(C(F)(F)F)cc2)cc1C1CCN(C[C@H]2CN([C@@H](C(=O)O)C(C)C)C[C@@H]2c2cccc(F)c2)CC1 | β-galactosidase | BaL |  | 50% human serum | HeLa | <0.1 µM
CNc1c(Cl)cccc1S(=O)(=O)c1ccccc1[N+](=O)[O-] | XTT | IIIB |  |  | CEM + CEM-SS | 4 µM
CC(C)CN(C[C@@H](O)[C@H](Cc1ccccc1)NC(=O)O[C@H]1CCO[C@H]2OCC[C@H]21)S(=O)(=O)c1ccc2nc(NC3CC3)sc2c1 | p24 / luminescence | NL4-3 | L10I M46L I54V V82A |  | MT-4 | 0.0032 µM
Cc1ccnc2c1NC(=O)c1cccnc1N2C1CC1 | β-galactosidase | NNRTI-resistant (RT V106I Y181C) | RT-V106I Y181C |  | MAGI | >10 µM
CN1N=C(N)c2cn([C@@H]3O[C@H](COP(=O)(O)O)[C@@H](O)[C@H]3O)c3ncnc1c23 | XTT | PM16 |  |  | CEM + CEM-SS | 0.11 µM
CCN[C@H]1CO[C@@H]2OCC[C@H](OC(=O)N[C@@H](Cc3cccc(OC)c3)[C@H](O)CN(CC(C)C)S(=O)(=O)c3ccc4nc(NC(C)C)sc4c3)[C@@H]21 | p24 / luminescence | NL4-3 | L10I L33I M36I M46I I54V K55R I62V L63P A71V G73S V82T L90M I93L |  | MT-4 | 0.0077 µM
Cc1cn([C@H]2C=C[C@@H](CO)O2)c(=O)[nH]c1=O | recombinant virus assay | Clinical isolate | M184V |  | MT-2 | 0.384 µM
N#Cc1cc2[nH]c3ccccc3c2n(-c2ccc([N+](=O)[O-])cc2)c1=O | luciferase | NL4-3 WT |  |  | HeLa | 0.156 µM
COC(=O)N[C@H](C(=O)N[C@@H](Cc1ccccc1)[C@@H](O)CN(Cc1ccc(-c2ccccn2)cc1)NC(=O)[C@@H](NC(=O)OC)C(C)(C)C)C(C)(C)C | p24 / luminescence | 92UG037 |  |  | PBMC | 0.0038 µM
Cc1cn([C@H]2C[C@H](N=[N+]=[N-])[C@@H](CO)O2)c(=O)[nH]c1=O | plaque count | clinical isolate A018C (RT D67N K70R T215Y K219Q) | RT-D67N K70R T215Y K219Q |  | HT4 + HT4-6C | 2.3 µM
COC(=O)N[C@H](C(=O)N[C@@H](Cc1ccccc1)[C@@H](O)CN(Cc1ccc(-c2ccccn2)cc1)NC(=O)[C@@H](NC(=O)OC)C(C)(C)C)C(C)(C)C | p24 / luminescence | NL4-3 | L10I M46L I54V V82A |  | MT-4 | 54 µM
CCn1nc(Cc2ccc(OC3CCC3)cc2)cc1C1CCN(C[C@H]2CN([C@@H](C(=O)O)C(C)C)C[C@@H]2c2cccc(F)c2)CC1 | β-galactosidase | BaL |  | 50% human serum | HeLa | <0.1 µM
Cc1cc(C#N)cc(C)c1Oc1nc(Nc2ccc(C#N)cc2)nc(N)c1Br | absorbance | 7324-1 |  |  | PBMC | 0.001 µM
CO[P@](=O)(c1cc(C)cc(/C=C/C#N)c1)c1c(C(N)=O)[nH]c2ccc(Cl)cc12 |  | BH10 | Y181C |  |  | <0.004 µM
Cc1cn([C@H]2C[C@H](N=[N+]=[N-])[C@@H](CO)O2)c(=O)[nH]c1=O | ELISA | Clinical isolate | TC-2 |  | PBMC | 0.0188 µM
CCCCOc1ccc(Cc2cc(C3CCN(C[C@H]4CN([C@@H](C(=O)O)C5CCCCC5)C[C@@H]4c4cccc(F)c4)CC3)n(CC)n2)cc1 | β-galactosidase | BaL |  |  | HeLa | <0.0004 µM
CCN(c1nc(F)ccc1NC(C)(C)C)C1CCN(C(=O)c2cc3cc(NC(=O)N4CCN(C)CC4)ccc3[nH]2)CC1 | ATP | IIIB | LPV-P31 resistant mutant |  | MT-2 | 0.325 µM
O=S(=O)(c1ccccc1)c1ccccc1 | XTT | Dihydrocostatolide-resistant (RT-L100I) | RT-L100I |  | CEM + CEM-SS | 53.1 µM
O=c1[nH]cnc2c1ncn2[C@H]1CC[C@@H](CO)O1 | plaque count | HXB2 | RT-L74V Y181C |  | HT4 + HT4 LacZ-1 | 8.9 µM
CCCc1cc(=O)oc2c3c(c4c(c12)OC(C)(C)C=C4)O[C@H](C)[C@@H](C)[C@@H]3O | XTT | IIIB |  |  | MT-2 | 0.4 µM
Cc1cn([C@H]2C[C@H](N=[N+]=[N-])[C@@H](CO)O2)c(=O)[nH]c1=O | single cycle / fluorescence |  |  |  | PBMC | 0.00642 µM
CCN[C@H]1CO[C@@H]2OCC[C@H](OC(=O)N[C@@H](Cc3ccccc3)[C@H](O)CN(CC(C)C)S(=O)(=O)c3ccc4nc(NC5CC5)sc4c3)[C@@H]21 | p24 / luminescence | NL4-3 | L10F K20T D30N K45I A71V V77I |  | MT-4 | 0.0034 µM
Cn1c2ccccc2c2c1cc(C#N)c(=O)n2-c1ccc([N+](=O)[O-])cc1 | luciferase | Recombinant | RT-M41L A62V S68N G112S M184V |  | HeLa | >0.0451 µM
Cc1cn([C@H]2C[C@H](N=[N+]=[N-])[C@@H](CO)O2)c(=O)[nH]c1=O | XTT | Costatolide-resistant (RT L100I T139I) | RT-L100I T139I |  | CEM + CEM-SS | 0.06 µM
CC(=O)N1CCC(C(=O)N(CCCN2CCC(Cc3ccc(C(N)=O)cc3)CC2)c2ccc(C)c(Cl)c2)CC1 | luciferase | R5 subtype B_2 recombinant |  |  | U87 (CD4+ CCR5+) + U87 | 0.0071 µM
CCc1c(C(=O)c2cc(C)cc(C)c2)n(CC2CC=CC2)c(=O)[nH]c1=O | cytopathic effect / XTT | NL4-3 | RT-L100I |  | CEM + CEM-SS | 0.0002 µM
CCn1nc(Cc2ccc(OC(C)(C)C)cc2)cc1C1CCN(C[C@H]2CN([C@@H](C(=O)O)C(C)(C)C)C[C@@H]2c2cccc(F)c2)CC1 | β-galactosidase | BaL |  |  | HeLa | <0.011 µM
CCCc1cc(=O)oc2c3c(c4c(c12)OC(C)(C)C=C4)O[C@@H](C)[C@H](C)[C@@H]3O | XTT | NL4-3 | RT-V106I |  | CEM + CEM-SS | 0.2 µM
C/C=C/CSc1cc(NC(=S)c2ccsc2C)ccc1Cl | cytopathic effect / XTT | UC040-R (RT-Y181C) | RT-Y181C |  | CEM + CEM-SS | >2 µM
Cc1cn([C@H]2C[C@H](N=[N+]=[N-])[C@@H](CO)O2)c(=O)[nH]c1=O | antigen | IIIB/LAI |  |  | HuT-78 + HUT 78 | 0.008 µM
CCc1c(Sc2ccccn2)n(COCc2ccccc2)c(=O)[nH]c1=O | cytopathic effect / XTT | UC781-R (RT-Y181C) | RT-Y181C |  | CEM + CEM-SS | 3.1 µM
Nc1nc(=O)n([C@@H]2CS[C@H](CO)O2)cc1F | GFP | NL4-3 | M184V/A502V |  | TZM-gfp | >100 µM
Cc1cccc(C)c1OCC(=O)N[C@@H](Cc1ccccc1)[C@@H](O)C[C@H](Cc1ccccc1)NC(=O)[C@H](C(C)C)N1CCCNC1=O | p24 / luminescence | 92UG029 |  |  | PBMC | 0.027 µM
O=c1[nH]cnc2c1ncn2[C@H]1CC[C@@H](CO)O1 | plaque count | HXB2 |  |  | HT4 + HT4 LacZ-1 | 1.26 µM

The last 4 rows once more:

CCc1c(Sc2ccccn2)n(COCc2ccccc2)c(=O)[nH]c1=O ; method: cytopathic effect / XTT ; strain or isolate: UC781-R (RT-Y181C) ; mutations: RT-Y181C ; cells: CEM + CEM-SS ; value: 3.1 µM
Nc1nc(=O)n([C@@H]2CS[C@H](CO)O2)cc1F ; method: GFP ; strain or isolate: NL4-3 ; mutations: M184V/A502V ; cells: TZM-gfp ; value: >100 µM
Cc1cccc(C)c1OCC(=O)N[C@@H](Cc1ccccc1)[C@@H](O)C[C@H](Cc1ccccc1)NC(=O)[C@H](C(C)C)N1CCCNC1=O ; method: p24 / luminescence ; strain or isolate: 92UG029 ; cells: PBMC ; value: 0.027 µM
O=c1[nH]cnc2c1ncn2[C@H]1CC[C@@H](CO)O1 ; method: plaque count ; strain or isolate: HXB2 ; cells: HT4 + HT4 LacZ-1 ; value: 1.26 µM

ECn is the concentration giving n% inhibition of infection, replication or growth. Blank or dashed fields: not listed here.